Experimental data: PMC6624301, “Structural basis for transcription antitermination at bacterial intrinsic terminator” (2019)

Molecular target: fluorescein-labeled P7 (R73C) (bacteriophage Xp10)
Test: fluorescence polarisation

| Substance | Kd |
| --- | --- |
| Xoo RNAP core enzyme (from UniProt B2SQT4;B2SQQ1;B2SQQ2;Q2P6M7) (complex) | 6.1 nM |
| Xoo transcription elongation complex (from UniProt B2SQT4;B2SQQ1;B2SQQ2;Q2P6M7) | 6.6 nM |
